Anti-infective test results gathered from many reports (values: NIAID ChemDB through PubChem).

Shared fields: growth or infection tests; species: HIV-1; method: p24; endpoint: EC50

Blank or dashed fields: not listed here. ECn is the concentration giving n% inhibition of infection, replication or growth. Neighbouring rows are from separate reports.

smiles	strain	mutations	cell line	value
Nc1ccn([C@H]2CC[C@@H](CO)O2)c(=O)n1	HXB2-D65(RT-K65R)	RT-K65R	MT-4	5.6 µM
CCCc1nnc(C[C@H](C[C@H](O)CN2CCN(C(C)(C)c3ncc(-c4ccc(F)cc4)o3)C[C@H]2C(=O)NCC(F)(F)F)C(=O)N[C@H]2c3ccccc3OC[C@H]2O)o1	Q-60 Clinical isolate	PR-L10I N37S R41K M46I I54V I62V L63P A71V V77I V82A L90M I93L	MT-4	<0.008 µM
CC(C)=CCOc1cc(NC(=S)c2ccoc2C)ccc1Cl	UC781-resistant (RT K103N Y181C) A17	RT-K103N Y181C	MT-2	>4 µg/mL
N[C@@H](CCC(=O)N[C@@H](CS)C(=O)NCC(=O)O)C(=O)O	IIIB		U-937	>3000 µM
COC(=O)[C@H]1CC[C@H]2[C@@H]3CCC4=CC(=O)CC[C@]4(C)[C@H]3CC[C@]12C	IIIB		H9	8.47 µM
O=C1c2c(O)c(=O)n(CC(c3ccncc3)N3CCOCC3)c(=O)n2CCN1Cc1ccc(F)cc1			MT-4	<10 µM
CC(C)(c1ncc(-c2ccc(F)cc2)o1)N1CCN(C[C@@H](O)C[C@@H](Cc2nnc(-c3ccccc3)o2)C(=O)N[C@H]2c3ccccc3OC[C@H]2O)[C@H](C(=O)NCC(F)(F)F)C1	K-60 Clinical isolate	PR-L10I M46I I54V Q58E L63P I64V V77I V82F I84V L90M I93L	MT-4	<0.008 µM
CC(C)Nc1cccnc1N1CCN(C(=O)c2cc3cc(N)ccc3[nH]2)CC1	D34		PBMC	0.055 µM
O=C(O)P(=O)(O)O	8420 CLADE D CLADE D		PBMC	48.7 µM
Cc1cn([C@H]2C[C@H](N=[N+]=[N-])[C@@H](COP(=O)(N[C@@H](C)C(=O)OCc3ccccc3)OCC(Cl)(Cl)Cl)O2)c(=O)[nH]c1=O	IIIB		C8166	0.03 µM
Cc1ccnc2c1NC(=O)c1cccnc1N2C1CC1	ADA		MM + M/M	0.2 µM
Cc1cn([C@H]2C[C@H](N=[N+]=[N-])[C@@H](CO)O2)c(=O)[nH]c1=O	BaL		PBMC	0.003 µM
CCCCCCCCCCCCCCCCOCCCOP(=O)(O)COCCn1cc(Br)c(N)nc1=O	LAI		MT-2	31 µM
Cc1cn([C@H]2C[C@@H](n3cc([N+](=O)[O-])nc3C)[C@H](O)[C@@H](CO)O2)c(=O)[nH]c1=O			MT-4	>100 µM
CN1CCN(C2(Cn3c(=O)c(O)c4n(c3=O)CCN(Cc3ccc(F)cc3)C4=O)CCCCC2)CC1			MT-4	<10 µM
O=C1c2ccccc2C(=O)N1CCOC(=S)Nc1ccc([N+](=O)[O-])cc1	IIIB		C8166	<0.03 µM
CC(C)OC(=O)OCOP(=O)(CO[C@H](C)Cn1cnc2c(N)ncnc21)OCOC(=O)OC(C)C	N119 (NNRTI-resistant RT Y181C)	RT-Y181C	MT-2	0.001 µM
Cc1cn([C@H]2C=C[C@@H](CO)O2)c(=O)[nH]c1=O	IIIB Subtype B		PBMC	0.056 µM
COc1ccc(S(=O)(=O)N(CC(C)C)C[C@@H](O)[C@H](Cc2ccccc2)NC(=O)O[C@H]2CO[C@H]3OCC[C@H]32)cc1	IIIB		H9(HIV-1(IIIB)) + H9	0.02 µM
O=C1c2c(O)c(=O)n(C3CCC3)c(=O)n2CCN1Cc1ccc(F)cc1			MT-4	<10 µM
S=C(NCc1ccco1)Nc1nccs1	IIIB		PBMC	<0.001 µM
Nc1nc(=O)n(C[C@@H](CO)OCP(=O)(O)O)cc1F	LAI		MT-2	>100 µM
C[C@]12CC[C@H]3[C@@H](CC=C4NC(=O)CC[C@@]43C)[C@@H]1CC[C@@H]2C(=O)Nc1ccc([N+](=O)[O-])c(C(F)(F)F)c1	IIIB		H9	3.09 µM
O=C1c2ccccc2C(=O)N1CCOC(=S)Nc1ccc(F)cc1	IIIB		C8166	<0.1 µM
NC(=O)P(=O)(O)OC[C@H]1O[C@@H](n2cnc3c(=O)[nH]c(N)nc32)[C@H](O)[C@@H]1O			H9	5.5 µM
Cc1ccc(NC(=S)OCCN2C(=O)c3ccccc3C2=O)cc1	IIIB		C8166	<0.015 µM
CC(C)CN(C[C@@H](O)[C@H](Cc1ccccc1)NC(=O)O[C@H]1CCOC1)S(=O)(=O)c1ccc(N)cc1	IIIB		CEM + CEM-SS	0.012 µM
CCCc1nnc(C[C@H](C[C@H](O)CN2CCN(C(C)(C)c3ncc(-c4ccc(Cl)cc4)o3)C[C@H]2C(=O)NCC(F)(F)F)C(=O)N[C@H]2c3ccccc3OC[C@H]2O)o1	V-18 Clinical isolate	PR-L10I M36I N37D M46I R57K L63P A71V G73S I84V L90M I93L	MT-4	<0.063 µM
O=C1c2c(O)c(=O)n(CCc3cn4ccccc4n3)c(=O)n2CCN1Cc1ccc(F)cc1			MT-4	<10 µM
Cc1cn([C@@H]2C[C@@H](n3nnc4ccccc43)[C@H](O)[C@@H](CO)O2)c(=O)[nH]c1=O			MT-4	>100 µM
O=C1c2c(O)c(=O)n(C34CC5CC(CC(O)(C5)C3)C4)c(=O)n2CCN1Cc1ccc(F)cc1			MT-4	<10 µM
S=C(NCCCn1ccnc1)Nc1nccs1	A17	RT-Y181C	PBMC	>100 µM
C1CNCCNCCCN(CCCN2CCCNCCNCCCNCC2)CCNC1	NL4-3	gp120 F145L N269E Q278H I288V N293D FNSTW364-368 deletion	MT-4	>25 µg/mL
Cc1cn([C@@H]2CC(n3nnc4ccccc43)C(C(O)CO)O2)c(=O)[nH]c1=O			MT-4	>100 µM
O=C1c2ccccc2C(=O)N1CCOC(=S)Nc1ccc(Br)cc1	IIIB		C8166	<0.015 µM
CCCc1nnc(C[C@H](C[C@H](O)CN2CCN(Cc3ccc(-c4ccc(Cl)cc4)o3)C[C@H]2C(=O)NCC(F)(F)F)C(=O)N[C@H]2c3ccccc3OC[C@H]2O)o1	K-60 Clinical isolate	PR-L10I M46I I54V Q58E L63P I64V V77I V82F I84V L90M I93L	MT-4	<0.008 µM
CCCCCCCCCCCCCCCCOCCCOP(=O)(O)COCCn1cc(F)c(N)nc1=O	LAI		MT-2	0.14 µM
CC(C)(c1ncc(-c2ccc(F)cc2)o1)N1CCN(C[C@@H](O)C[C@@H](Cc2nnco2)C(=O)N[C@H]2c3ccccc3OC[C@H]2O)[C@H](C(=O)NCC(F)(F)F)C1	V-18 Clinical isolate	PR-L10I M36I N37D M46I R57K L63P A71V G73S I84V L90M I93L	MT-4	<0.125 µM
CCCCCCCCCCCCCCCCOCCCOP(=O)(O)COCCn1cnc2c(=O)[nH]c(N)nc21	LAI		MT-2	0.0000074 µM
CC(=O)[C@H]1CC[C@H]2[C@@H]3CCC4=CC(=O)CC[C@]4(C)[C@H]3CC[C@]12C	LTR-CAT		U-937	>0.1 µM
COC(=O)[C@H](C)NP(=O)(OC[C@@H]1C=C[C@H](n2cc(C)c(=O)[nH]c2=O)O1)Oc1ccc(Br)cc1	AZT RT-MDR	RT M41L L74V T215Y V106N	PBMC	<0.001 µM
CCCCCCCC/C=C\CCCCCCCCOCCOP(=O)(O)COCCn1cnc2c(NC3CC3)nc(N)nc21	LAI		MT-2	<0.00001 µM
Cc1c(O)cccc1C(=O)N[C@@H](CSc1ccccc1)[C@H](O)CN1C[C@H]2CCCC[C@H]2C[C@H]1C(=O)NC(C)(C)C	IIIB Subtype B		PBMC	0.0033 µM
CCCc1cc(=O)oc2c3c(c4c(c12)OC(C)(C)C=C4)O[C@@H](C)[C@H](C)[C@@H]3O	BaL		MM + M/M	0.01 µM
CCCc1nnc(C[C@H](C[C@H](O)CN2CCN(C(C)(C)c3ncc(-c4cncc(OC)c4)o3)C[C@H]2C(=O)NCC(F)(F)F)C(=O)N[C@H]2c3ccccc3OC[C@H]2O)o1	NL4-3 WT		MT-4	<0.5 µM
Cc1cn([C@H]2C[C@H](N=[N+]=[N-])[C@@H](CO)O2)c(=O)[nH]c1=O	IIIB		H9	<0.08 µg/mL
CCCCCCCCCCCCCCCCCCOCCOP(=O)(O)COCCn1cnc2c(N)ncnc21	LAI		MT-2	0.00002 µM
C[C@]12CC[C@H]3[C@@H](CC=C4NC(=O)CC[C@@]43C)[C@@H]1CC[C@@H]2C(=O)O	IIIB		H9	3.85 µM
Cc1nnc(C[C@H](C[C@H](O)CN2CCN(C(C)(C)c3ncc(-c4ccc(F)cc4)o3)C[C@H]2C(=O)NCC(F)(F)F)C(=O)N[C@H]2c3ccccc3OC[C@H]2O)o1	NL4-3 WT		MT-4	<0.125 µM
CC(C)c1nc(CN(C)C(=O)N[C@H](C(=O)N[C@@H](Cc2ccccc2)C[C@H](O)[C@H](Cc2ccccc2)NC(=O)OCc2cncs2)C(C)C)cs1	NL4-3		MT-4	0.03 µM
NC(=O)P(=O)(O)OC[C@H]1O[C@@H](n2ccc(N)nc2=O)[C@H](O)[C@@H]1O			H9	3 µM
CCCCC[C@H](O)/C=C/[C@H]1C=CC(=O)[C@@H]1CCCCCCC(=O)O	IIIB		CEM + CEM-SS	1 µg/mL
Cc1cn([C@H]2C[C@H](N=[N+]=[N-])[C@@H](CO)O2)c(=O)[nH]c1=O	BaL		MM + M/M	0.03 µM
Cc1cn([C@H]2C[C@H](N=[N+]=[N-])[C@@H](COP(=O)(Oc3ccc([N+](=O)[O-])cc3)Oc3ccc([N+](=O)[O-])cc3)O2)c(=O)[nH]c1=O	GB8		JM	10 µM
CC(C)c1nc(CN(C)C(=O)N[C@H](C(=O)N[C@@H](Cc2ccccc2)C[C@H](O)[C@H](Cc2ccccc2)NC(=O)OCc2cncs2)C(C)C)cs1	BaL		PBMC	0.006 µM
CCCc1cc(=O)oc2c3c(c4c(c12)OC(C)(C)C=C4)O[C@H](C)[C@@H](C)[C@@H]3O	ADA		MM + M/M	0.07 µM

A second listing of 6 rows from above:

smiles	strain	mutations	cell line	value
CC(C)OC(=O)OCOP(=O)(CO[C@H](C)Cn1cnc2c(N)ncnc21)OCOC(=O)OC(C)C	N119 (NNRTI-resistant RT Y181C)	RT-Y181C	MT-2	0.001 µM
Nc1ccn([C@H]2CC[C@@H](CO)O2)c(=O)n1	HXB2-D65(RT-K65R)	RT-K65R	MT-4	5.6 µM
CC(=O)[C@H]1CC[C@H]2[C@@H]3CCC4=CC(=O)CC[C@]4(C)[C@H]3CC[C@]12C	LTR-CAT		U-937	>0.1 µM
O=C1c2c(O)c(=O)n(CCc3cn4ccccc4n3)c(=O)n2CCN1Cc1ccc(F)cc1			MT-4	<10 µM
Cc1cn([C@H]2C=C[C@@H](CO)O2)c(=O)[nH]c1=O	IIIB Subtype B		PBMC	0.056 µM
N[C@@H](CCC(=O)N[C@@H](CS)C(=O)NCC(=O)O)C(=O)O	IIIB		U-937	>3000 µM